Publication PMC3172200 (PLoS Biology, 2011)

Biological target: soluble CD28 comprising its extracellular domain fused to IgG1-Fc dimer (CD28-Fc) (human, UniProt P10747 19-152)
Experiment: SPR

Question: Does CTNKKKVTAQELDC [pSEB (TNKKKVTAQELD), SEB 150-161] bind?
Answer: Result: binds
